Pooled drug test results. Numbers come from NIAID ChemDB, via PubChem.

Common to all: cytotoxicity tests; cells: HepG2.2.15; read by: MTT; read-out: CC50

Rows are shuffled and stem from different studies. CCn: concentration that lowers growth or viability of the cells by n%.

SMILES,result
COC(=O)C1(O)C[C@H](O)C(OC(=O)/C=C/c2ccc(O)c(O)c2)[C@@H](O)C1,1970 µM
C[N+](C)(O)CCc1c[nH]c2ccc(O)cc12,>25 µM
CC[C@H]1OC(O[C@@H]2[C@@H]3[C@](C)(CC[C@H]2C(C)C)[C@H](O)CC[C@]3(C)O)[C@H](O)[C@@H](O)[C@@H]1O,1670 µM
O=C(/C=C/C=C/c1ccc([N+](=O)[O-])cc1)[Se]c1ccccc1,>100 µM
COc1ccc([C@H]2OC[C@H]3[C@@H]2CO[C@@H]3c2cc(OC)c(O)c(OC)c2)cc1O,480 µM
COc1cc(/C=C/C(=O)[Se]c2ccccc2)ccc1O,>100 µM
CCOC(=O)c1ccc(O)cc1,4620 µM
COC(=O)[C@]1(O)C[C@H](OC(=O)/C=C/c2ccc(O)c(O)c2)[C@@H](O)[C@@H](O)C1,2920 µM
O[N+](CCc1c[nH]c2ccccc12)(CC1CC1)CC1CC1,>100 µM
CCC(=O)c1ccc(O)c(OC)c1,2760 µM
Cc1ccc(/C=C/C=C/C(=O)[Se]c2ccccc2)cc1,>100 µM
O=C(O)c1ccccc1O,4330 µM
O=C(/C=C/c1ccc(O)c(O)c1)O[C@H]1[C@@H](OC(=O)/C=C/c2ccc(O)c(O)c2)C[C@](O)(C(=O)O)C[C@@H]1O,>1805 µM
COc1cc([C@H]2c3cc(O)c(OC)cc3C[C@@H](CO)[C@@H]2CO)ccc1O,201 µM
O=C1CCc2ccccc2[Se]1,>100 µM
O=C(/C=C/c1ccc(O)c(O)c1)O[C@H]1CC(O)(C(=O)O)C[C@H](OC(=O)/C=C/c2ccc(O)c(O)c2)C1O,>1653 µM
O=C(/C=C/c1ccc(O)c(O)c1)[Se]c1ccccc1,>100 µM
CC(=O)[C@]1(O)CC[C@@]2(O)[C@]1(C)[C@H](OC(=O)/C=C(\C)C(C)C)CC1[C@@]3(C)CC[C@H](OC(=O)/C=C/c4cccc(C(F)(F)F)c4)CC3=CC[C@]12O,>1270 µM
O=C(/C=C/c1ccc(O)cc1)[Se]c1ccccc1,>100 µM
CCC[N+](O)(CCC)CCc1c[nH]c2ccccc12,>100 µM
O=C(/C=C/C=C/c1ccccc1)[Se]c1ccccc1,>100 µM
O=C(C=Cc1ccc(O)c(O)c1)O[C@@H]1C[C@](O)(C(=O)O)C[C@@H](O)[C@H]1O,>1380 µM

The last 3 rows once more:

SMILES,result
CCC[N+](O)(CCC)CCc1c[nH]c2ccccc12,>100 µM
O=C(/C=C/C=C/c1ccccc1)[Se]c1ccccc1,>100 µM
O=C(C=Cc1ccc(O)c(O)c1)O[C@@H]1C[C@](O)(C(=O)O)C[C@@H](O)[C@H]1O,>1380 µM